Source: publication PMC8530329 (PLoS Pathogens, 2021)

Target: T1, spike glycoprotein receptor-binding domain, SARS-CoV-2 (Severe acute respiratory syndrome …, UniProt P0DTC2)
T1 construct: source: Expi293F Expression System, purified (Ni Sepharose, anti-Flag M2 agarose)
Experiment: SPR
Conditions: both partners purified

B1: RBD-chAb-45 (antibody, V domains shown)
VH: EVQLQQSGPELVKPGASVKISCKTSGYTFTEYTIYWVKQSLGKSLEWIGGNNPNNDDTTYKQFFKGKATLTVDKSSSTAYMELRSLTSEDSAVYYCARDGYPYYYALDFWGQGTSVTVSS
VL: DIVMTQSQKFMSTSVGDRVSVTCKSSQNVGTNVAWYQQKPGQSPKALIYSASYRYSGVPDHFTGSGSGTDFTLTISNVQSADLAEYFCQQYNNYPWTFGGGTKLEIK
notes: also called S-chAb-45 (in complex with S); source: Expi-293 cells, co-transfected, purified (protein G column)
  Kd: < 0.5 nM
